Anti-infective test results gathered from many reports (values: NIAID ChemDB through PubChem).

All rows: tests in culture; species: Mycobacterium tuberculosis

An empty or dashed field is not shown. Inhibition is in % at the dose shown (toxicity tests: loss of growth or viability). MIC50, MIC90 and the like: level of inhibition, or share of isolates inhibited. ECn: concentration that inhibits the pathogen or its effect by n%. Conditions beyond the fields shown may differ between rows. MIC bound: limit read from a one-dose screen.

compound,method,cell line,changes,dose,strain or isolate,measure,result
CCSc1nc(C(N)=S)cnc1CC(C)C,,,,,H37Rv,MIC,>12.5 µg/mL
Oc1c(CN2CCCC2)cc(Nc2cc(/C=C/c3ccc(Cl)cc3)nc(/C=C/c3ccc(Cl)cc3)n2)cc1CN1CCCC1,,VERO,,,H37Rv,MIC,6.25 µg/mL
CCCCCCCN1C(=O)C(=O)c2cccc(-c3ccccc3)c21,,,,,H37Rv,MIC,≤20 µg/mL
CN(CC#CC#CC(C)(C)C)c1cccc2c1CCC(=O)N2,,,,6.25 µg/mL,H37Rv,inhibition,19%
COc1cc(C=O)c(-c2cc3c(cc2C2(C)OCCS2)OCO3)c(OC)c1OC,BACTEC,,,12.5 µg/mL,H37Rv,inhibition,12%
CC(C)(C)c1ccc(N2CCN(Cc3ccc([N+](=O)[O-])o3)CC2)cc1,resazurin,,INH RFP resistant,,Clinical Isolate 16833,MIC90,>32 µg/mL
CCN(CC)CCNc1ccc(C)c2oc3ccc(O)cc3c(=O)c12,,,,,EMB-R,MIC,12.5 µg/mL
Cc1ccc2nc(SCc3c(F)cccc3[N+](=O)[O-])[nH]c2c1,,,,,MY 332/88,MIC,125 µM
Nc1ccc2c(c1)CN1C(=O)c3ccccc3C1=N2,BACTEC,,,12.5 µg/mL,H37Rv,inhibition,69%
CCCCc1ncc(C(N)=S)nc1SC,,,,12.5 µg/mL,H37Rv,inhibition,62%
CC1COc2c(N3CCN(C(N)=NC#N)CC3)c(F)cc3c(=O)c(C(=O)O)cn1c23,broth dilution,,,,ATCC 35822,MIC,0.625 µg/mL
Cc1[nH]nc(C(=O)NO)c1[N+](=O)[O-],BACTEC,,,12.5 µg/mL,H37Rv,inhibition,8%
CC(=O)Nc1ccc(OCC(=O)N/N=C/c2ccccc2Cl)cc1,,,,12.5 µg/mL,H37Rv,inhibition,35%
CC[C@H]1OC(=O)[C@H](C)[C@@H](O[C@H]2C[C@@](C)(OC)[C@@H](O)[C@H](C)O2)[C@H](C)[C@@H](O[C@@H]2O[C@H](C)C[C@H](N(C)C)[C@H]2O)[C@](C)(O)C[C@@H](C)C(=O)[C@H](C)[C@@H](O)[C@]1(C)O,,,,,MDR,MBC90,>8 µg/mL
CCCCCCCC[N+]1(CCOC(=O)Nc2ccccc2OCCCCCC)CCCCC1,,,,,My 331/88,MIC,8 µM
O=C1C(=O)N(CCC2CCN(Cc3ccccc3)CC2)c2ccc(C3CCCCC3)cc21,,,,,H37Rv,MIC,≤20 µg/mL
CCCSc1nc(C(N)=S)cnc1C(C)(C)C,,,,,H37Rv,MIC,>12.5 µg/mL
CCCCCCCCN1C(=O)C(=O)c2cccc(-c3ccccc3)c21,,,,,H37Ra,MIC,≤20 µg/mL
CC(=O)Nc1ccc(OCC(=O)NN2C(=O)C(C)SC2c2ccccc2O)cc1,,,,12.5 µg/mL,H37Rv,inhibition,0%
O=c1oc(-c2cc(-c3ccccc3)nc3ccccc23)nn1CN1CCCC1,BACTEC,,,12.5 µg/mL,H37Rv,inhibition,29%
O=[N+]([O-])c1ccc(CN2CCC3(CC2)CCN(c2ccc(OC(F)(F)F)cc2)CC3)o1,resazurin,,,,H37Rv,MIC90,<0.016 µg/mL
Cc1ccc2nc(SCc3cccc(Cl)c3)[nH]c2c1,,,,,MY 332/88,MIC,62 µM
O=[n+]1c(Sc2ccccc2)c(CBr)n([O-])c2ccc(C(F)(F)F)cc21,,,,6.25 µg/mL,H37Rv,inhibition,77%
CCOC(=O)c1cc(C)nc2c1c(=O)n(-c1ccccc1)c(=O)n2CCCCN1CCN(c2ncccn2)CC1,resazurin,,,,H37Rv,MIC bound,>6.25 µg/mL
COc1ccc(/C=N/NC(=O)COc2ccc(NC(C)=O)cc2)cc1,,,,,H37Rv,EC50,>12.5 µg/mL
Cc1c(Cl)ccc2c(C(=O)NN)cc(-c3ccc(Cl)cc3)nc12,BACTEC,,,,H37Rv,MIC bound,≤12.5 µg/mL
C[C@@H]1CN(c2c(F)c(N)c3c(=O)c(C(=O)O)cn(C4CC4)c3c2F)C[C@H](C)N1,,,,,900216,MIC,0.2 µg/mL
Cc1ccc2nc(SCc3cccc(C(N)=S)c3)[nH]c2c1,,,,,MY 332/88,MIC,62 µM
C=C1C(=O)N[C@@H](CC(C)C)C(=O)N[C@H](CC(C)C)C(=O)N[C@H](C(=O)O)[C@H](C)C(=O)N[C@H](CCCN=C(N)N)C(=O)N[C@@H](/C=C/C(C)=C/[C@H](C)[C@H](Cc2ccccc2)OC)[C@@H](C)C(=O)N[C@@H](C(=O)O)CCC(=O)N1C,resazurin,,Rifampicin-resistant,,,MIC,13.2 µM
CC[C@H]1OC(=O)[C@H](C)[C@@H](O[C@H]2C[C@@](C)(OC)[C@@H](O)[C@H](C)O2)[C@H](C)[C@@H](O[C@@H]2O[C@H](C)C[C@H](N(C)C)[C@H]2O)[C@](C)(O)C[C@@H](C)CN(C)[C@H](C)[C@@H](O)[C@]1(C)O,,,,,MDR,MIC50,>8 µg/mL
Brc1ccc(-c2csc(-n3cccc3)n2)cc1,resazurin,,,,H37Rv,MIC,0.8 µg/mL
COc1cc2c3cc1Oc1cc(ccc1O)C[C@H]1c4c(cc(OC)c(O)c4Oc4ccc(cc4)C[C@H]3[N+](C)(C)CC2)CC[N+]1(C)C.[Cl-].[Cl-],BACTEC,,,,H37Rv,MIC,≥128 µg/mL
CCCCSc1nc(C(N)=O)cnc1CCCC,,,,,H37Rv,MIC,>12.5 µg/mL
C=C1CCC[C@@]2(C)CC[C@@H](/C(C)=C/C=C/C(C)(C)O)C[C@H]12,BACTEC,,,12.5 µg/mL,H37Rv,inhibition,51%
Cc1ccc2nc(SCc3ccccc3Cl)[nH]c2c1,,,,,MY 332/88,MIC,32 µM
O=C(O)c1cn(C2CC2)c2cc(N3CCN(C/C(=N/OCc4ccccc4)c4ccco4)CC3)c(F)cc2c1=O,,,,,H37Rv,MIC,>6.25 µg/mL
CCCCN1C(=O)C(=O)c2cccc(-c3ccccc3)c21,,,,,H37Rv,MIC,≤20 µg/mL
CCCCCOc1ccccc1NC(=O)OCC[N+]1(CCCC)CCCCC1,,,,,My 331/88,MIC,125 µM
CC1S(=O)(=O)O[Si](C)(C)CC[Si](C)(C)OS1(=O)=O,BACTEC,,,12.5 µg/mL,H37Rv,inhibition,-1%
CCCc1ncc(C(N)=S)nc1Sc1ccccc1,,,,,H37Rv,MIC,>12.5 µg/mL
CC(=O)Nc1ccc(OCC(=O)NN2C(=O)C(C)SC2c2ccc(N(C)C)cc2)cc1,,,,,H37Rv,EC50,>12.5 µg/mL
CCCc1ncc(C(N)=O)nc1SC,,,,,H37Rv,MIC,>12.5 µg/mL
CCCCCCOc1ccccc1NC(=O)OCC[N+]1(C)CCCCC1,,,,,My 331/88,MIC,32 µM
N#C/C(=C/c1ccccn1)c1nc(-c2ccc(Cl)cc2)cs1,BACTEC,,,,H37Rv,MIC bound,>12.5 µg/mL
COc1ccc(COc2ccc(C(O)C3CC3)cc2)cc1,,,,,H37Ra,MIC,>25 µg/mL
O=C(O)c1cccc2c1Oc1ccccc1S2(=O)=O,BACTEC,,,12.5 µg/mL,H37Rv,inhibition,12%
C[C@H]1COc2c(N3CCN(C)CC3)c(F)cc3c(=O)c(C(=O)O)cn1c23,,,,,Drug-resistant,MBC90,1 µg/mL
O=[N+]([O-])c1ccc(CN2CCC3(CC2)CCN(c2ccc(C(F)(F)F)cc2)CC3)o1,resazurin,,,,H37Rv,MIC90,<0.016 µg/mL
CCN(CCCCCN1C(=O)C(=O)c2cc(C3CCCCC3)ccc21)Cc1ccccc1,,,,,H37Rv,MIC,≤20 µg/mL
CC1CCCN(CC(O)CN2CCN(CC(O)CN3CCCC(C)C3)C(C)C2)C1,BACTEC,,,12.8 µg/mL,H37Rv,inhibition,12%
C/C=C1/C(=O)O[C@]23C=C[C@@H]4C(C(=O)OC)=CO[C@H](O[C@@H]12)[C@@H]43,MTT,,,,MDR2 clinical isolate,MIC,2 µg/mL
CSC(=S)N/N=C(\Cc1ccccc1)c1ccccn1,BACTEC,,,,H37Rv,MIC,32 µg/mL
Cc1ccc(C)n1-c1nc(-c2ccccc2)cs1,resazurin,,,,H37Rv,MIC,0.4 µM
CN=C(N=Nc1c(O)[nH]c2ccccc12)SCC(=O)c1ccc(Br)cc1,,,,,H37Rv,MIC,6.25 µg/mL
C[C@H]1COc2c(N3CCN(C)CC3)c(F)cc3c(=O)c(C(=O)O)cn1c23,,,,,8R,MIC,0.5 µg/mL
O=C(CN1CCN(c2cc3c(cc2F)c(=O)c(C(=O)O)cn3C2CC2)CC1)c1ccco1,,,,6.25 µg/mL,H37Rv,inhibition,103%
CC[C@H]1OC(=O)[C@H](C)[C@@H](O[C@H]2C[C@@](C)(OC)[C@@H](O)[C@H](C)O2)[C@H](C)[C@@H](O[C@@H]2O[C@H](C)C[C@H](N(C)C)[C@H]2O)[C@](C)(OC)C[C@@H](C)C(=O)[C@H](C)[C@@H](O)[C@]1(C)O,,,,,ATCC35838,MBC,>8 µg/mL
CCCCSc1nc(C(N)=O)cnc1CC(C)C,,,,,H37Rv,MIC,>12.5 µg/mL
Cc1c(Sc2ccccc2)[n+](=O)c2cc(Cl)ccc2n1[O-],,,,,H37Rv,MIC,0.39 µg/mL
CCCCCCCCCCCCN1C(=O)C(=O)c2cccc(-c3ccccc3)c21,,,,,H37Rv,MIC,≤20 µg/mL
C[C@@H]1CN(c2c(F)c(N)c3c(=O)c(C(=O)O)cn(C4CC4)c3c2F)C[C@H](C)N1,,,,,ATCC 35827,MBC,0.06 µg/mL
CC(=O)N/N=C/c1ccc([N+](=O)[O-])o1,BACTEC,,,12.5 µg/mL,H37Rv,inhibition,88%
CCCCCCC[N+]1(CCOC(=O)Nc2ccccc2OCCCCCC)CCCCC1,,,,,My 331/88,MIC,16 µM
Nc1nc(-n2cc(C(=O)O)c(=O)c3cc(F)c(N4CC(O)C4)c(Cl)c32)c(F)cc1F,,,,,22 strains (rifampicin-susceptible),MIC90,0.78 µg/mL
O=c1nc(N2CCN(CC3CCCCC3)CC2)sc2c([N+](=O)[O-])cc(C(F)(F)F)cc12,resazurin,,,,H37Rv,MIC90,<0.016 µg/mL
CCCCCOc1ccccc1NC(=O)OCC[N+]1(CC)CCCCC1,,,,,My 331/88,MIC,1000 µM
C[C@@H]1CN(c2c(F)c(N)c3c(=O)c(C(=O)O)cn(C4CC4)c3c2F)C[C@H](C)N1,,,,,22 strains (rifampicin-susceptible),MIC90,0.2 µg/mL
COc1ccc(N2CCC3(CCN(Cc4ccc([N+](=O)[O-])o4)CC3)CC2)cc1,resazurin,,,,H37Rv,MIC90,0.205 µg/mL
C=C1C(O)[C@@]2(C(=O)N1OC)/C(=C/CC)C=CC(=O)[C@H]2O,BACTEC,,,,H37Rv,MIC bound,>12.5 µg/mL
CC(C)(C)c1cccc(N2CCC3(CCN(Cc4ccc([N+](=O)[O-])o4)CC3)CC2)c1,resazurin,,INH RFP resistant,,Clinical Isolate 16833,MIC90,>10 µg/mL
O=[N+]([O-])c1ccc(-c2csc(-n3cccc3)n2)cc1,resazurin,,,,H37Rv,MIC,0.4 µg/mL
O=C1CCCCCN1c1ccccn1,BACTEC,,,,H37Rv,MIC bound,>12.5 µg/mL
CCCCc1ncc(C(N)=S)nc1SCCC,,,,12.5 µg/mL,H37Rv,inhibition,83%
O=C1C(=O)N(CCN2CCN(Cc3ccccc3)CC2)c2c1cccc2C1CCCC1,,,,,H37Rv,MIC,≤20 µg/mL
CCCCn1c(-c2ccc([N+](=O)[O-])cc2)cs/c1=N\N=C1/C(=O)Nc2ccc(Br)cc21,,,,,H37Rv,MIC,6.25 µg/mL
Cc1ccc2c(c1)[n+](=O)c(Sc1ccccc1)c(CBr)n2[O-],,,,,H37Rv,MIC,>6.25 µg/mL
C=CCN=C(N=Nc1c(O)[nH]c2ccccc12)SCC(=O)c1ccc([N+](=O)[O-])cc1,,,,12 µg/mL,H37Rv,inhibition,4%
NNC(=O)c1ccncc1,resazurin,,INH RFP resistant,,Clinical Isolate 16995,MIC90,>40 µg/mL
Nc1ccc(-c2csc(-n3cccc3)n2)cc1,resazurin,,,,H37Rv,MIC,25 µg/mL
CCn1cc(C(=O)O)c(=O)c2cc(F)c(N3CCN(C/C(=N/OC)c4ccco4)CC3)cc21,,,,6.25 µg/mL,H37Rv,inhibition,23%
CCCCSc1nc(C(N)=S)cnc1CCCC,,,,12.5 µg/mL,H37Rv,inhibition,87%
C/C=C/C=C1\OC(C)=C(C(C)=O)C1=O,BACTEC,,,12.5 µg/mL,H37Rv,inhibition,-6%
CCn1cc(C(=O)O)c(=O)c2cc(F)c(N3CCN(C/C(=N/O)c4cccs4)CC3)cc21,,,,,H37Rv,MIC,>6.25 µg/mL
CO[C@H]1/C=C/O[C@@]2(C)Oc3c(C)c(O)c4c(O)c(c(/C=N/N5CCN(C)CC5)c(O)c4c3C2=O)NC(=O)/C(C)=C\C=C\[C@H](C)[C@H](O)[C@@H](C)[C@@H](O)[C@@H](C)[C@H](OC(C)=O)[C@@H]1C,,,,,2S,MIC,1 µg/mL
Nc1nnc(N)n1NC(=O)C(=O)Nc1ccc([N+](=O)[O-])cc1,BACTEC,,,,H37Rv,MIC bound,>12.5 µg/mL
Cc1ccc(N2C(=O)C(C)S/C2=N\N=C2/C(=O)Nc3ccccc32)cc1,,,,,H37Rv,MIC,>12.5 µg/mL

Repeating the final 9 entries:

compound	method	cell line	changes	dose	strain or isolate	measure	result
NNC(=O)c1ccncc1	resazurin		INH RFP resistant		Clinical Isolate 16995	MIC90	>40 µg/mL
Nc1ccc(-c2csc(-n3cccc3)n2)cc1	resazurin				H37Rv	MIC	25 µg/mL
CCn1cc(C(=O)O)c(=O)c2cc(F)c(N3CCN(C/C(=N/OC)c4ccco4)CC3)cc21				6.25 µg/mL	H37Rv	inhibition	23%
CCCCSc1nc(C(N)=S)cnc1CCCC				12.5 µg/mL	H37Rv	inhibition	87%
C/C=C/C=C1\OC(C)=C(C(C)=O)C1=O	BACTEC			12.5 µg/mL	H37Rv	inhibition	-6%
CCn1cc(C(=O)O)c(=O)c2cc(F)c(N3CCN(C/C(=N/O)c4cccs4)CC3)cc21					H37Rv	MIC	>6.25 µg/mL
CO[C@H]1/C=C/O[C@@]2(C)Oc3c(C)c(O)c4c(O)c(c(/C=N/N5CCN(C)CC5)c(O)c4c3C2=O)NC(=O)/C(C)=C\C=C\[C@H](C)[C@H](O)[C@@H](C)[C@@H](O)[C@@H](C)[C@H](OC(C)=O)[C@@H]1C					2S	MIC	1 µg/mL
Nc1nnc(N)n1NC(=O)C(=O)Nc1ccc([N+](=O)[O-])cc1	BACTEC				H37Rv	MIC bound	>12.5 µg/mL
Cc1ccc(N2C(=O)C(C)S/C2=N\N=C2/C(=O)Nc3ccccc32)cc1					H37Rv	MIC	>12.5 µg/mL